The values below come from publication PMC3922157 (Journal of Antimicrobial Chemotherapy, 2013).

For assay [1], the system named is procyclic T. b. brucei 247MR. In words: Drug resistance of procyclic 247MR relative to parental line. The format is cell-based. As to conditions: procyclic 247MR vs STIB 247 (Figure S2).
Assay [2] concerns procyclic T. b. gambiense 386MR. The assay is described as follows: Drug resistance of procyclic 386MR relative to parental line. The assay is classed as cell-based. As to conditions: procyclic 386MR vs STIB 386 (Figure S2).

SMILES strings stand for the structures.

As to `O=[As]c1ccccc1` (centres unmarked), the “Resistance relative to parental line” value in assay [1] and in assay [2] was “Neither strain displayed resistance” each time.
